Results on 20 compounds are retold here after PubChem BioAssay AID565 (University of Pittsburgh Molecular Library Screening Center, 2006).

Structures are written as SMILES. This is a selection; strong and weak results do not stand in their true shares. The source made the active and inactive calls. No stated cut-off is given here; in the data, active means inhibition above about 50%; inactive means the rest.

The target of the test is Gag-Pol polyprotein (Human immunodeficiency virus type 1 group M subtype B (isolate HXB2)) (UniProt P04585). Nature of the test: HIV-1 RT RNase H inhibitors, primary screen, biochemical, fluorescence (AID 565). Particulars: RT-RNase H RNA/DNA duplex cleavage, at 10 µM, active compounds read high.
`COC(=O)c1cc2c(s1)N=C(c1ccccc1)N(C)P2(=O)N1CCOCC1` (stereo not given): the inhibition (commonly the change of the read-out against control, counted positive when it falls) is inactive: -3.78%.

As to `O=P1(Nc2nc3ccc(Cl)cc3s2)COc2ccccc2O1` (stereo not given), the inhibition is inactive: 2.12%.

Turning to `O=P(Nc1nccs1)(c1ccccc1)c1ccccc1`, the inhibition was inactive: 0.49%.

Consider `c1nnnn1CCn1cnnn1`, for which the inhibition was inactive: -8.91%.

Turning to `O=C(OC1CN2CCC1CC2)c1cccc(Cl)c1` (stereo not given), the inhibition is inactive: 2.68%.

As to `CCc1nc2c(n1)c1c(non1O)c1c2no[n+]1[O-]`, the inhibition was inactive: -8.86%.

Regarding `Cc1c2non([O-])c-2c(C)[n+](=O)[n+]1[O-]`, the inhibition was inactive: 23.8%.

As to `O=C(OC1CN2CCC1CC2)C12CC3CC(CC(C3)C1)C2` (stereo not given), the inhibition is inactive: -6.86%.

In the case of `COP1(=S)c2c(C)nn(CCC#N)c2N=C(c2ccc(F)cc2)N1C` (stereo not given), the inhibition is inactive: -15.1%.

`O=C(COc1ccccc1)OC1CN2CCC1CC2` (stereo not given): the inhibition is inactive: -1.13%.

With `O=P1(Nc2ncccn2)COc2ccccc2OC1`, the inhibition is inactive: 2.28%.

As for `O=P1(Nc2ccc(Br)cn2)COc2ccccc2OC1`, the inhibition is inactive: 2.5%.

Turning to `Cc1ccc(OCC(=O)OC2CN3CCC2CC3)cc1` (stereo not given), the inhibition is inactive: -5.47%.

Turning to `Cc1nn(-c2ccccc2)c2c1P(=O)(N1CCOCC1)N(C)C(c1ccccc1)=N2` (stereo not given), the inhibition was inactive: 3.23%.

Take `O=P1(Nc2ccccn2)COc2ccccc2OC1`: the inhibition is inactive: -4.82%.

In the case of `Clc1n[nH]nc1-c1nn[nH][15n]1`, the inhibition is inactive: -14.5%.

On to `Cc1cccc(OCC(=O)OC2CN3CCC2CC3)c1` (stereo not given), for which the inhibition was inactive: -8.27%.

Regarding `CCOP1(=S)c2c(C)nn(CCC#N)c2N=C(c2ccc(F)cc2)N1C` (stereo not given), the inhibition is active: 73.4%.

For `CCOP1(=S)c2c(C)nn(CCC#N)c2N=C(c2ccccc2F)N1C` (stereo not given), the inhibition was inactive: -15.7%.

As to `O=P(Nc1nccs1)(c1ccccc1)c1nc2ccccc2s1` (stereo not given), the inhibition was active: 77.3%.
